Experiment: in vitro
Settings: human

## CC(=O)O[C@@H]1C[C@]2(C)[C@@]3(CO)[C@H](O)C(=O)C(C)=C[C@H]3O[C@H]1[C@@]21CO1 [3-ADON, 3-acetyldeoxynivalenol]
  viability: 70%

From paper PMC5371851 (Toxins, 2017)
